A mixed list of measured activities; the numbers were collected in NIAID ChemDB.

Common to all: tests in culture; species: Mycobacterium tuberculosis

ECn: concentration that inhibits the pathogen or its effect by n%. Lines come from different laboratories, so protocols vary. a–b is a range or a potency band. Inhibition is in % at the dose shown (toxicity tests: loss of growth or viability). MIC bound: limit read from a one-dose screen. An empty or dashed field is not shown. A number after MIC or MFC names an inhibition level or a share of isolates.

smiles | endpoint | strain or isolate | method | tested at | setting | value
CCn1cc(C(=O)O)c(=O)c2cc(F)c(N3CCNCC3)nc21 | MIC90 | - | - | - | - | >4 µg/mL
Clc1ccc(-n2ccnc2)cc1Cl | MIC | H37Ra | resazurin | - | - | >12.5 µg/mL
CCOc1ccc(NC(C)=O)cc1 | MBC | H37Ra | - | - | - | 3200 µg/mL
COc1ccc(C2=NNC(c3cn(-c4ccccc4)nc3-c3ccc(SC)cc3)C2)cc1 | inhibition | H37Rv | BACTEC | 6.25 µg/mL | - | 86%
N#CC1=C(C#N)C(=O)C(Cl)=C(Cl)C1=O | MIC | H37Ra | - | - | - | 400 µg/mL
O=C1C=CC(O)(c2cc3ccccc3s2)C=C1 | EC50 | H37Rv | - | - | - | >6.25 µg/mL
C[C@@H]1CN(c2c(F)c(N)c3c(=O)c(C(=O)O)cn(C4CC4)c3c2F)C[C@H](C)N1 | MIC50 | 18 strains | - | - | - | 0.25 µg/mL
O=C(O)c1cccc2ccccc12 | MIC | H37Ra | - | - | - | 200 µg/mL
CCCCCCCCO/N=C/c1c2c(O)c3c(O)c(C)c4c(c3c1O)C(=O)[C@@](C)(O/C=C/[C@H](OC)[C@@H](C)[C@@H](OC(C)=O)[C@H](C)[C@H](O)[C@H](C)[C@@H](O)[C@@H](C)/C=C/C=C(/C)C(=O)N2)O4 | MIC | H37Rv | - | - | - | >5 µg/mL
Cn1nc(N)c2cc(C(N)=O)c(N)nc21 | MIC | H37Rv | BACTEC | - | - | ≥12.5 µg/mL
OCCN1CCN(CCC=C2c3ccccc3Sc3ccc(Cl)cc32)CC1 | MIC | ST. 5 | - | - | - | 6.25 µg/mL
c1ccc(P(c2ccccc2)c2ccccn2)cc1 | MIC99 | H37Rv | broth dilution / visual reading | - | 14 d | 320 µM
CCn1cc(C(=O)O)c(=O)c2cc(F)c(N3CCNCC3)cc21 | MIC90 | - | - | - | - | >4 µg/mL
COc1c2ccoc2cc2oc(COC3OC(CO)C(O)C(O)C3O)cc(=O)c12 | inhibition | H37Rv | BACTEC | 12.8 µg/mL | - | 8%
NC(=O)CNS(=O)(=O)c1ccc(-c2nnn(Cc3ccc(F)c(F)c3)n2)cc1 | MIC | H37Rv | resazurin | - | - | <0.1 µM
CC(C)=CCC1=C(O)c2ccccc2C(=O)C1=O | MIC | H37Ra | - | - | - | 100 µg/mL
CN=c1ncc2nc(-c3ccccc3)c(-c3ccccc3)n(C)c-2n1 | MIC bound | H37Rv | BACTEC | - | - | >12.5 µg/mL
CCCc1cc(=O)oc2c(C(=O)CC)c(OCC(=O)OCC)c3c(c12)OC(C)(C)CC3 | MIC | H37Ra | - | - | - | >128 µg/mL
CSc1ccc(-c2nn(-c3ccccc3)cc2C2CC(c3ccc(N)cc3)=NN2)cc1 | inhibition | H37Rv | BACTEC | 6.25 µg/mL | - | 10%
OCCN1CCN(CC/C=C2/c3ccccc3Sc3ccc(C(F)(F)F)cc32)CC1 | MIC | ST. 5 | - | - | - | 6.25 µg/mL
O=[N+]([O-])c1ccc(-n2cc(Cn3c4ccccc4c4ccccc43)nn2)cc1 | MIC | H37Rv | agar | - | - | 25 µg/mL
N#CCNS(=O)(=O)c1ccc(-c2nnn(Cc3ccc(F)cc3)n2)cc1 | MIC | H37Rv | resazurin | - | - | <0.1 µM
CCn1c2ccccc2c2cc(-n3cc(Cn4c5ccccc5c5ccccc54)nn3)ccc21 | MIC | H37Rv | agar | - | - | 25 µg/mL
CCCc1cc(=O)oc2c(C(=O)CC)c(OS(=O)(=O)c3ccc(C)cc3)c3c(c12)OC(C)(C)CC3 | MIC | H37Ra | - | - | - | >128 µg/mL
COc1cccc(C(c2ccc(OCCN(C)C)cc2)c2cc3ccccc3c3ccccc23)c1 | MIC | H37Rv | - | - | - | >25 µg/mL
NS(=O)(=O)c1cc2c(cc1Cl)NC(CCC(=O)O)=NS2(=O)=O | MIC bound | H37Rv | resazurin | - | - | >6.25 µg/mL
CCCc1cc(=O)oc2c3c(cc(OC(C)C)c12)O[C@H](C)[C@H](C)[C@@H]3O | MBC | H37Ra | - | - | - | 64 µg/mL
CSc1ccc(-c2nn(-c3ccccc3)cc2C2CC(c3cccc([N+](=O)[O-])c3)=NN2)cc1 | inhibition | H37Rv | BACTEC | 6.25 µg/mL | - | 25%
FC(F)(F)c1cccc(-n2cc(Cn3c4ccccc4c4ccccc43)nn2)c1 | MIC | H37Rv | agar | - | - | 50 µg/mL
NC(=O)c1cnccn1 | MIC | H37Ra | visual reading | - | - | >6500 µM
CC(=O)OCC1OC(N2C(c3ccccc3)=CC(c3cccs3)C(C#N)=C2S)C(OC(C)=O)C(OC(C)=O)C1OC(C)=O | inhibition | H37Rv | BACTEC | 12.5 µg/mL | - | 79%
CC(=O)Oc1c(Cl)cccc1C(=O)Nc1ccc(C(F)(F)F)cc1 | MIC | My 331/88 | - | - | - | 4 µg/mL
COc1cc(/C=N/NC(=O)C[N+](C)(C)C)cc(I)c1O | MIC | H37Rv | BACTEC | - | - | ≥12.5 µg/mL
CCCc1cc(=O)oc2c(C(=O)CC)c(OC(C)C)cc(O)c12 | MIC | H37Ra | - | - | - | >128 µg/mL
O=[N+]([O-])c1ccc(Cn2cc(Cn3c4ccccc4c4ccccc43)nn2)c(Cl)c1 | MIC | H37Rv | agar | - | - | 25 µg/mL
O=C1C=CC(O)(c2cnc3ccccc3c2)C=C1 | EC50 | H37Rv | - | - | - | <6.25 µg/mL
CCCCOC(=O)c1ccc2nc[nH]c2c1 | MIC | H37Ra | visual reading | - | - | 200 µM
O=C(NN1C(=O)CCSC1c1ccccc1[N+](=O)[O-])c1ccncc1 | MIC | H37Rv | broth dilution / agar | - | - | 0.56 µM
NC(=O)CNS(=O)(=O)c1ccc(-c2nnn(Cc3ccc(F)cc3)n2)cc1Cl | MIC | H37Rv | resazurin | - | - | <0.1 µM
O=C(O)c1cn(-c2ccc(F)cc2)c2cc(N3CCNCC3)c(F)cc2c1=O | MIC90 | - | - | - | - | >4 µg/mL
COc1ccc2c(c1)N(C[C@H](C)CN(C)C)c1ccccc1S2 | MIC | ST. 5 | - | - | - | 25 µg/mL
CC(=O)Oc1c(Cl)cccc1C(=O)Nc1ccc(Cl)c(Cl)c1 | MIC | My 331/88 | - | - | - | 2 µg/mL
O=C1C=CC(O)(c2ccccn2)C=C1 | EC50 | H37Rv | - | - | - | <6.25 µg/mL
CC(C)CCCC(C)C1CCC2C3CCC4C5Oc6ccccc6N=C5CCC4(C)C3CCC12C | MIC bound | H37Rv | BACTEC | - | - | >12.5 µg/mL
CCCc1cc(=O)oc2c(C(=O)CC)c(OCC)c3c(c12)OC(C)(C)CC3 | MIC | H37Ra | - | - | - | >128 µg/mL
O=C(CSCC(=O)N/N=C/c1ccccc1O)N/N=C/c1ccccc1O | MIC bound | H37Rv | BACTEC | - | - | >12.5 µg/mL
C/C=C/CO/N=C/c1c2c(O)c3c(O)c(C)c4c(c3c1O)C(=O)[C@@](C)(O/C=C/[C@H](OC)[C@@H](C)[C@@H](OC(C)=O)[C@H](C)[C@H](O)[C@H](C)[C@@H](O)[C@@H](C)/C=C/C=C(/C)C(=O)N2)O4 | MIC | H37Rv | - | - | - | 0.1 µg/mL
CSc1ccc(-c2nn(-c3ccccc3)cc2C2CC(c3ccc([N+](=O)[O-])cc3)=NN2C(C)=O)cc1 | inhibition | H37Rv | BACTEC | 6.25 µg/mL | - | 35%
O=C1OC(=O)C2C1C(c1ccc([N+](=O)[O-])cc1)N1C3C(=O)OC(=O)C3C(c3ccc([N+](=O)[O-])cc3)N21 | inhibition | H37Rv | BACTEC | 12.5 µg/mL | - | -5%
CC(=O)Oc1cc(Cl)ccc1C(=O)N(C(C)=O)c1ccc(Br)cc1 | MIC | My 331/88 | - | - | - | 4 µg/mL
Cc1ccc2c(c1)-c1nc3nnnn3nc1C(C)(C)O2 | MIC bound | H37Rv | BACTEC | - | - | >12.5 µg/mL
Cc1c(CN2CCN(C)CC2)cc(-c2ccc(Cl)cc2)n1-c1ccc(Cl)cc1 | MIC | 19 strains | - | - | - | 0.7–6.2 µg/mL
CSc1ccc(-c2nn(-c3ccccc3)cc2C2CC(c3ccc(C)cc3)=NN2)cc1 | inhibition | H37Rv | BACTEC | 6.25 µg/mL | - | 29%
CCCCOCCOCCO/N=C/c1c2c(O)c3c(O)c(C)c4c(c3c1O)C(=O)[C@@](C)(O/C=C/[C@H](OC)[C@@H](C)[C@@H](OC(C)=O)[C@H](C)[C@H](O)[C@H](C)[C@@H](O)[C@@H](C)/C=C/C=C(/C)C(=O)N2)O4 | MIC | H37Rv | - | - | - | 0.5 µg/mL
CCOC(=O)c1c(C)oc(=O)c(CC)c1O | inhibition | H37Rv | BACTEC | 12.5 µg/mL | - | 28%
COc1cc(-c2nnn(C(C)c3ccc(F)cc3)n2)ccc1S(=O)(=O)NCC(N)=O | MIC | H37Rv | resazurin | - | - | 10–25 µM
O=C1C=CC(O)(c2ccc3ccccc3c2)C=C1 | MIC | H37Rv | - | - | - | >6.25 µg/mL
COc1cc(Cn2cc(Cn3c4ccccc4c4ccccc43)nn2)cc(OC)c1OC | MIC | H37Rv | agar | - | - | 12.5 µg/mL
N#Cc1ccc(Cn2nnc(-c3ccc(S(=O)(=O)NCCO)cc3)n2)cc1 | MIC | H37Rv | resazurin | - | - | <0.1 µM
COc1cc2c(c3[nH]cc(C(=O)O)c(=O)c13)NC(=O)CS2 | MIC bound | H37Rv | - | - | - | >6.25 µg/mL
Clc1cccc(Cn2cc(Cn3c4ccccc4c4ccccc43)nn2)c1 | MIC | H37Rv | agar | - | - | 50 µg/mL
C=C(C)/C=C/[C@]12C[C@H](C)C3CC[C@](C)(NC)[C@@H](CC[C@H]1C)[C@@H]32 | MIC100 | H37Rv | resazurin | - | - | 15 µg/mL
O=[N+]([O-])c1cnc(/C=N/N2CCN(/N=C/c3ncc([N+](=O)[O-])[nH]3)CC2)[nH]1 | inhibition | H37Rv | resazurin | 6.25 µg/mL | - | 23%
CC(=O)Oc1cc(Cl)ccc1C(=O)Nc1ccc(C(F)(F)F)cc1 | MIC | My 331/88 | - | - | - | 4 µg/mL
O=C1C=CC(=O)c2ccccc21 | MIC | H37Ra | - | - | - | 100 µg/mL
O=C1C=CC(O)(c2nc3ccccc3s2)C=C1 | EC50 | H37Rv | - | - | - | <6.25 µg/mL
CC1=CC(=O)c2c(O)cccc2C1=O | MIC | H37Ra | - | - | - | 400 µg/mL
CN(C)c1ccc(O)c2c1C[C@H]1C[C@H]3[C@H](N(C)C)C(=O)C(C(N)=O)=C(O)[C@@]3(O)C(=O)C1=C2O | MIC bound | H37Rv | BACTEC | - | - | ≤12.5 µg/mL
C#CCOc1c2c(c3c(CCC)cc(=O)oc3c1C(=O)CC)OC(C)(C)C=C2 | MIC | H37Ra | - | - | - | >128 µg/mL
CCOCCOCCO/N=C/c1c2c(O)c3c(O)c(C)c4c(c3c1O)C(=O)[C@@](C)(O/C=C/[C@H](OC)[C@@H](C)[C@@H](OC(C)=O)[C@H](C)[C@H](O)[C@H](C)[C@@H](O)[C@@H](C)/C=C/C=C(/C)C(=O)N2)O4 | MIC | H37Rv | - | - | - | 0.5 µg/mL
Cc1c2ccncc2cc2c1sc1ccncc12 | MIC bound | H37Rv | resazurin | - | - | >6.25 µg/mL
OCCCCCn1cc(Cn2c3ccccc3c3ccccc32)nn1 | MIC | H37Rv | agar | - | - | 25 µg/mL
CSc1ccc(-c2nn(-c3ccccc3)cc2C2CC(c3ccccc3O)=NN2)cc1 | inhibition | H37Rv | BACTEC | 6.25 µg/mL | - | 0%
OCCN1CCN(CC/C=C2/c3ccccc3Sc3ccc(Cl)cc32)CC1 | MIC | ST. 5 | - | - | - | 6.25 µg/mL
COC(=O)C1COC(C(C)(C)C)N1C=O | MIC bound | H37Rv | BACTEC | - | - | >12.5 µg/mL
CCOC(=O)Cn1cc(Cn2c3ccccc3c3ccccc32)nn1 | MIC | H37Rv | agar | - | - | 12.5 µg/mL
O=S(=O)(NCCO)c1ccc(-c2nnn(Cc3cccnn3)n2)cc1 | MIC | H37Rv | resazurin | - | - | 10–25 µM
C/C(=N\NC(=O)c1ccccc1O)c1c(O)cc(C)oc1=O | MIC bound | H37Rv | BACTEC | - | - | >12.5 µg/mL
CC(=O)Oc1cc(Cl)ccc1C(=O)Nc1cccc(Cl)c1 | MIC | My 331/88 | - | - | - | 8 µg/mL
COc1cccc2c1C(=O)c1c(O)c3c(c(O)c1C2=O)C[C@@](O)(/C(C)=N/NC(=O)c1cccc([N+](=O)[O-])c1)C[C@H]3O[C@H]1CC(N)[C@H](O)[C@H](C)O1 | MIC | ETA-R | - | - | - | 12.5 µg/mL
Cc1ccc(Cn2nnc(-c3ccc(S(=O)(=O)NCC(N)=O)cc3)n2)cc1 | MIC | H37Rv | resazurin | - | - | <0.1 µM
COc1ccccc1C1SC(c2ccccc2)(c2ccccc2)OC1=O | MIC bound | H37Rv | BACTEC | - | - | >12.5 µg/mL
COC1(c2nc3ccccc3s2)C=CC(=NS(=O)(=O)c2ccc(C)cc2)C=C1 | EC50 | H37Rv | - | - | - | >6.25 µg/mL
CC1(C)OC(=O)N(Cc2ccccc2)C1=O | inhibition | H37Rv | BACTEC | 12.5 µg/mL | - | 6%
CCCCCC(CC)O/N=C/c1c2c(O)c3c(O)c(C)c4c(c3c1O)C(=O)[C@@](C)(O/C=C/[C@H](OC)[C@@H](C)[C@@H](OC(C)=O)[C@H](C)[C@H](O)[C@H](C)[C@@H](O)[C@@H](C)/C=C/C=C(/C)C(=O)N2)O4 | MIC | H37Rv | - | - | - | 2 µg/mL